# In publication PMC12044245 (Emerging Infectious Diseases, 2025):
# Molecular target: NA (neuraminidase) of A/Yamagata/103/2024 (Influenza A virus, UniProt C3W5S3)
# Assay type: biochemical
structure (smiles),measurement,value
"CC(=O)N[C@H]1[C@H]([C@H](O)[C@H](O)CO)OC(C(=O)O)=C[C@@H]1N=C(N)N [Zanamivir, zanamivir]",IC50,0.43 nM
